PubChem BioAssay AID1259414 – Drosophila RNAi Screening Center – 2018
The screen tested about 24,000 reagents; below is an unselected part of those that have a named target and a result. Over the whole deposit, about 1,210 (5%) got an active call. 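Inactive calls also include excluded dsRNAs with several or no targets, genes unexpressed in JW18, and well A1, regardless of score.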

Screen: 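Host factors increasing or decreasing Wolbachia levels in cultured fly cells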 (primary screen)
Cells: Drosophila JW18 cells infected with Wolbachia
Reagents: long dsRNA against Drosophila genes, 0.25 µg dsRNA per well of a 384-well plate
Time to read-out: 5 days
Conditions: cells persistently infected with Wolbachia before knock-down; no added drug
Read-out: 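Automated imaging of bacterial rRNA staining divided by host cell count, reported as plate-normalised robust z-score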
Reading the numbers: Wolbachia per cell robust z: higher = more Wolbachia per host cell than the plate typical
Hit rule: 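Hit when robust z is 1.5 or more, or -1.5 or less, in at least two of three replicates; excludes dsRNAs with several or no targets, genes not expressed in JW18 and well A1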

predicted target	PubChem SID	Wolbachia per cell robust z, rep 1	Wolbachia per cell robust z, rep 2	Wolbachia per cell robust z, rep 3	call
CG32564	SID104199725	-0.175	0.0392	0.187	inactive
CG32564	SID104203748	-0.41	-0.958	-0.315	inactive
CG14135	SID104189932	0.198	0.223	0.997	inactive
smog	SID104180126	-0.484	-1.27	-0.385	inactive
smog	SID104202410	0.729	0.279	0.496	inactive
smog	SID104205767	-0.309	-1.52	-0.505	inactive
Cpr66Cb	SID104190561	-0.171	0.302	1.44	inactive
bora	SID104190536	0.823	1.28	0.601	inactive
grim	SID104202526	0.416	0.232	-0.591	inactive

Continued; the last 4 above are carried over.
predicted target	PubChem SID	Wolbachia per cell robust z, rep 1	Wolbachia per cell robust z, rep 2	Wolbachia per cell robust z, rep 3	call
smog	SID104205767	-0.309	-1.52	-0.505	inactive
Cpr66Cb	SID104190561	-0.171	0.302	1.44	inactive
bora	SID104190536	0.823	1.28	0.601	inactive
grim	SID104202526	0.416	0.232	-0.591	inactive
naz	SID104194582	-0.351	-0.131	-0.963	inactive
naz	SID104195991	-5.96	-0.664	-0.375	inactive
Ktch	SID104194886	-1.13	0.346	0.749	inactive
Ktch	SID104204517	0.872	0.299	1.42	inactive
Ssdp	SID104196003	1.03	-0.851	-3.83	inactive
Ssdp	SID104206070	0.267	1.13	0.598	inactive
SmB	SID104183229	2.9	2.42	3.68	active
SmB	SID104204803	1.36	0.475	1.27	inactive
flr	SID104189579	0.299	0.19	-0.225	inactive
Tmf	SID104198160	1.21	-1.97	-3.6	active
Tmf	SID104208548	0.146	0.437	0.819	inactive
Hsp60C	SID104182828	0.608	2.28	-1.59	inactive
Hsp60C	SID104207982	-1.84	-0.611	-0.325	inactive
CG6674	SID104190484	0.127	-0.167	1.02	inactive
CG12795	SID104180146	-0.026	-0.535	-0.641	inactive
CG15578	SID104197858	0.954	-0.26	0.298	inactive
Acp54A1	SID104218853	0.331	0.486	0.727	inactive
CG32655	SID104198717	-0.433	1.47	0.515	inactive
CG8939	SID104199919	0.515	0.886	-0.375	inactive
